Measured values reported in patent publication US20040072240A1.

Assays:
[1] = target: HLA A2.1 molecule (human); experiment: T2 cells, flow cytometry (BB7.2); reference I9V; P1Y peptide
[2] = target: HLA A2.1 molecule (human); experiment: T2 cells, flow cytometry (BB7.2); complex dissociation; P1Y peptide
[3] = target: HLA A2.1 molecule (human); experiment: T2 cells, flow cytometry; P1Y variant against its natural peptide

Row | Binder | RA (relative affinity) [1] | DC50 [2] [h] | DC50 Y1-DC50 WT [3] [h] | RA WT/RA Y1 [3]
1 | YLTPLCVSL (modifications not checked) [P1Y variant of K9L] | 0.7 | > 6 | – | –
2 | YLEEELPRL (modifications not checked) [P1Y variant of HBVpol 594] | – | – | > 6 | 14.8
3 | YLVNQIIEQL (modifications not checked) [P1Y variant of E10L] | 10 | < 2 | – | –
4 | YLVKLWYQL (modifications not checked) [P1Y variant of P9L] | 4.6 | < 2 | – | –
5 | YLTFGWCFKL (modifications not checked) [P1Y variant of P10L] | 5 | – | – | –
6 | YLDTGADDTV (modifications not checked) [L10VY] | 1.5 | 4 | – | –
7 | YLDVGDAYFSV (modifications not checked) [P1Y variant of V11V] | 2.5 | 3.5 | – | –
8 | YLRDLLLIV (modifications not checked) [P1Y variant of R9V] | 5 | – | – | –
9 | YFHHVAREL (modifications not checked) [P1Y variant of A9L] | 7 | > 6 | – | –
10 | YLGCAANWIL (modifications not checked) [P1Y variant of HBV pol 765] | – | – | 4 | 40.4
11 | YIYQYMDDL (modifications not checked) [P1Y variant of V9L] | – | < 2 | – | –
12 | YLTPLCVTL (modifications not checked) [P1Y variant of K9L/T] | 0.4 | > 6 | – | –
